Anti-infective test results gathered from many reports (values: NIAID ChemDB through PubChem).

Common to all: whole-cell or culture tests; agent: Streptococcus pneumoniae; read-out: MIC

Lines come from different laboratories, so protocols vary.

CC[C@H]1OC(=O)[C@H](C)C(=O)[C@H](C)[C@@H](O[C@@H]2O[C@H](C)C[C@H](N(C)C)[C@H]2O)[C@@]2(C)C[C@@H](C)C(=NC(C)=O)[C@H](C)C(OC/C(=C\C#Cc3ccc(N)nc3)CO2)[C@]1(C)O ; strain or isolate: 700906 (erythromycin-resistant-ERM) ; result: 0.13 µg/mL
COc1c(N2CCNC(C)C2)c(F)cc2c(=O)c(C(=O)O)cn(C3CC3)c12 ; strain or isolate: D-1687 ; result: 2 µg/mL
CC[C@H]1OC(=O)[C@H](C)C(=O)[C@H](C)[C@@H](O[C@@H]2O[C@H](C)C[C@H](N(C)C)[C@H]2O)[C@@]2(C)C[C@@H](C)C(=NC(C)=O)[C@H](C)C(OC/C(=N/OCc3ccccc3)CO2)[C@]1(C)O ; strain or isolate: 49619 (erythromycin-susceptible) ; result: 0.25 µg/mL
CC[C@H]1OC(=O)[C@@](C)(F)C(=O)[C@H](C)[C@@H](O[C@@H]2O[C@H](C)C[C@H](N(C)C)[C@H]2O)[C@@]2(C)C[C@@H](C)C(=NC(C)=O)[C@H](C)[C@@H](OC/C(=N\OCc3ccc(C(N)=O)cc3)CO2)[C@]1(C)O ; strain or isolate: 7701 (erythromycin A-resistant) ; result: 0.25 µg/mL
C[C@H]1NCc2cc(-c3c(F)cc4c(=O)c(C(=O)O)cn(C5CC5)c4c3OC(F)F)ccc21 ; strain or isolate: R6-G8 ; result: 0.06 µg/mL
CC[C@H]1OC(=O)[C@@](C)(F)C(=O)[C@H](C)[C@@H](O[C@@H]2O[C@H](C)C[C@H](N(C)C)[C@H]2O)[C@@]2(C)C[C@@H](C)C(=NC(C)=O)[C@H](C)[C@@H](OC/C(=N\OCc3ccc(-c4ncccn4)s3)CO2)[C@]1(C)O ; strain or isolate: 7701 (erythromycin A-resistant) ; result: <0.06 µg/mL
CC[C@H]1OC(=O)[C@H](C)C(=O)[C@H](C)[C@@H](O[C@@H]2O[C@H](C)C[C@H](N(C)C)[C@H]2O)[C@@]2(C)C[C@@H](C)C(=NC(C)=O)[C@H](C)[C@@H](OC/C(=N\Oc3ccc(-c4nccs4)nc3)CO2)[C@]1(C)O ; strain or isolate: 7701 (erythromycin-resistant-MEF) ; result: <0.06 µg/mL
CC[C@H]1OC(=O)[C@@](C)(F)C(=O)[C@H](C)[C@@H](O[C@@H]2O[C@H](C)C[C@H](N(C)C)[C@H]2O)[C@@]2(C)C[C@@H](C)C(=NC(C)=O)[C@H](C)[C@@H](OC/C(=N\OCC#Cc3cccc(N)n3)CO2)[C@]1(C)O ; strain or isolate: 7701 (erythromycin A-resistant) ; result: 0.13 µg/mL
CC[C@H]1OC(=O)[C@H](C)C(=O)[C@H](C)[C@@H](O[C@@H]2O[C@H](C)C[C@H](N(C)C)[C@H]2O)[C@@]2(C)C[C@@H](C)C(=NC(C)=O)[C@H](C)C(OC/C(=C\C#Cc3ccc(N)cc3)CO2)[C@]1(C)O ; strain or isolate: 700906 (erythromycin-resistant-ERM) ; result: 0.25 µg/mL
CC[C@H]1OC(=O)[C@H](C)C(=O)[C@H](C)[C@@H](O[C@@H]2O[C@H](C)C[C@H](N(C)C)[C@H]2O)[C@@]2(C)C[C@@H](C)C(=NC(C)=O)[C@H](C)[C@@H](OC/C(=N\OCC#Cc3cncnc3)CO2)[C@]1(C)O ; strain or isolate: 700906 (erythromycin-resistant-ERM) ; result: 4 µg/mL
CC[C@H]1OC(=O)[C@H](C)C(=O)[C@H](C)[C@@H](O[C@@H]2O[C@H](C)C[C@H](N(C)C)[C@H]2O)[C@@]2(C)C[C@@H](C)C(=NC(C)=O)[C@H](C)C(OC/C(=C\C=C\c3cccnc3)CO2)[C@]1(C)O ; strain or isolate: 49619 (erythromycin-susceptible) ; result: <0.06 µg/mL
C=C1COC2[C@@H](C)C(=NC(C)=O)[C@H](C)C[C@@](C)(OC1)[C@H](O[C@@H]1O[C@H](C)C[C@H](N(C)C)[C@H]1O)[C@@H](C)C(=O)[C@@H](C)C(=O)O[C@H](CC)[C@@]2(C)O ; strain or isolate: 49619 (erythromycin-susceptible) ; result: 0.25 µg/mL
CC[C@H]1OC(=O)[C@@](C)(F)C(=O)[C@H](C)[C@@H](O[C@@H]2O[C@H](C)C[C@H](N(C)C)[C@H]2O)[C@@]2(C)C[C@@H](C)C(=O)[C@H](C)[C@@H](OC/C(=N\OCc3ccc(-n4cccn4)nc3)CO2)[C@]1(C)O ; strain or isolate: 700906 (erythromycin A-resistant) ; result: <0.06 µg/mL
CN1CCN(c2ccc3c(=O)c(C(=O)O)cn(C4CC4)c3c2)CC1 ; strain or isolate: R6-G8 ; result: 32 µg/mL
CC[C@H]1OC(=O)[C@H](C)C(=O)[C@H](C)[C@@H](O[C@@H]2O[C@H](C)C[C@H](N(C)C)[C@H]2O)[C@@]2(C)C[C@@H](C)C(=NC(C)=O)[C@H](C)C(OC/C(=C\C=C\c3cccc([N+](=O)[O-])c3)CO2)[C@]1(C)O ; strain or isolate: 7701 (erythromycin-resistant-MEF) ; result: 0.5 µg/mL
CN1CCN(c2cc3c(cc2F)c(=O)c(C(=O)O)cn3C2CC2)CC1 ; strain or isolate: R6 ; result: 1 µg/mL
CC[C@H]1OC(=O)[C@H](C)C(=O)[C@H](C)[C@@H](O[C@@H]2O[C@H](C)C[C@H](N(C)C)[C@H]2O)[C@@]2(C)C[C@@H](C)C(=NC(C)=O)[C@H](C)C(OC/C(=C\c3cnc4ccccc4c3)CO2)[C@]1(C)O ; strain or isolate: 7701 (erythromycin-resistant-MEF) ; result: 0.25 µg/mL
CC[C@H]1OC(=O)[C@H](C)C(=O)[C@H](C)[C@@H](O[C@@H]2O[C@H](C)C[C@H](N(C)C)[C@H]2O)[C@@]2(C)C[C@@H](C)C(=NC(C)=O)[C@H](C)[C@@H](OC/C(=N\Oc3ccc(-c4nnc(N)s4)cc3)CO2)[C@]1(C)O ; strain or isolate: 49619 (erythromycin-susceptible) ; result: <0.06 µg/mL

The last 2 rows once more:

smiles | strain or isolate | result
CC[C@H]1OC(=O)[C@H](C)C(=O)[C@H](C)[C@@H](O[C@@H]2O[C@H](C)C[C@H](N(C)C)[C@H]2O)[C@@]2(C)C[C@@H](C)C(=NC(C)=O)[C@H](C)C(OC/C(=C\c3cnc4ccccc4c3)CO2)[C@]1(C)O | 7701 (erythromycin-resistant-MEF) | 0.25 µg/mL
CC[C@H]1OC(=O)[C@H](C)C(=O)[C@H](C)[C@@H](O[C@@H]2O[C@H](C)C[C@H](N(C)C)[C@H]2O)[C@@]2(C)C[C@@H](C)C(=NC(C)=O)[C@H](C)[C@@H](OC/C(=N\Oc3ccc(-c4nnc(N)s4)cc3)CO2)[C@]1(C)O | 49619 (erythromycin-susceptible) | <0.06 µg/mL